Fitness effects across NS2B and the NS3 protease domain of Zika virus

Source: Ni et al. 2025 (doi:10.1038/s41467-025-63602-z), supplementary data.

Chain scanned (Zika virus MR766; NS2B from position 2 to 131, then the start of NS3):
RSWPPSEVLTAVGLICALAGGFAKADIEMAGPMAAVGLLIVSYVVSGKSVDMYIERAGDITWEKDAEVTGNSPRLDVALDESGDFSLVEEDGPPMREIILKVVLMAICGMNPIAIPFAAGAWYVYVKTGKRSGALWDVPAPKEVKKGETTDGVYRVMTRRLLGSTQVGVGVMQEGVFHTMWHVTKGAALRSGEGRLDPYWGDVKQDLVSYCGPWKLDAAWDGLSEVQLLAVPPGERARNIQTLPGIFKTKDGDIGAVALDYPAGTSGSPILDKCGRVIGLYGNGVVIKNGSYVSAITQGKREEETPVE

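Libraries of single mutants were passaged as virus pools on Huh-7.5 cells. The effect is the change in frequency of a mutant, normalised to wild type, as a mean of three replicate libraries (two for positions 207-308). The study looked for pockets that tolerate few changes, as a guide for inhibitor design.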

The number is log2 of the effect relative to wild type; negative values mean reduced growth, higher values better tolerance. Each entry names the wild-type residue, its position and the residue put in its place. Positions 1-103, 104-206 and 207-308 were made and measured as separate libraries.

| # | change | effect (log2) |
|---|---|---|
| 1 | R276L | -3.16 |
| 2 | G170K | -5.84 |
| 3 | L162* | -7.03 |
| 4 | L9C | -1.43 |
| 5 | Q227D | -4.92 |
| 6 | V44H | -5.60 |
| 7 | L259Y | -5.20 |
| 8 | G152I | -5.61 |
| 9 | I60Y | -3.99 |
| 10 | V277I | -3.48 |
| 11 | V68T | -4.24 |
| 12 | P198V | -2.94 |
| 13 | R155N | -5.69 |
| 14 | F177D | -4.57 |
| 15 | G275A | -0.53 |
| 16 | D76I | -1.39 |
| 17 | T297Y | -4.57 |
| 18 | V153H | -5.03 |
| 19 | A57* | -6.79 |
| 20 | S82P | -7.89 |
| 21 | K48G | -3.74 |
| 22 | V169T | -6.76 |
| 23 | C108I | -6.08 |
| 24 | E235L | -3.72 |
| 25 | F247S | -6.85 |
| 26 | A121K | -5.92 |
| 27 | A256P | -7.04 |
| 28 | N283V | -5.98 |
| 29 | R96I | -2.96 |
| 30 | Q166T | -6.46 |
| 31 | K64E | 0.01 |
| 32 | V102N | -5.45 |
| 33 | D217F | -4.03 |
| 34 | S224* | -7.57 |
| 35 | I98M | -2.78 |
| 36 | A263Q | -1.47 |
| 37 | Q173R | -3.34 |
| 38 | M29R | -7.16 |
| 39 | F85N | -4.65 |
| 40 | D59G | -3.10 |
| 41 | I115D | -5.15 |
| 42 | L280V | -5.26 |
| 43 | S266Q | -4.77 |
| 44 | A11R | -6.70 |
| 45 | I60R | -7.96 |
| 46 | R195N | -5.59 |
| 47 | F247G | -6.99 |
| 48 | C108S | 0.27 |
| 49 | L38V | -2.42 |
| 50 | P112L | -6.98 |
| 51 | W122Y | -2.89 |
| 52 | D197K | -6.60 |
| 53 | D26Y | -1.74 |
| 54 | L75K | -6.50 |
| 55 | E193F | -4.33 |
| 56 | T69F | -6.35 |
| 57 | N111M | -2.55 |
| 58 | I254V | -6.42 |
| 59 | G234P | -4.86 |
| 60 | T305C | -0.59 |
| 61 | D202A | -2.58 |
| 62 | L75V | -1.27 |
| 63 | D84C | -5.93 |
| 64 | E303H | -1.22 |
| 65 | S266I | -5.06 |
| 66 | Q205P | -8.61 |
| 67 | S132E | -5.33 |
| 68 | R74H | 0.25 |
| 69 | T61I | -0.95 |
| 70 | I296K | -4.86 |
| 71 | N111P | -6.63 |
| 72 | G109D | -5.03 |
| 73 | T242G | -6.53 |
| 74 | R276M | -3.26 |
| 75 | E308C | -0.15 |
| 76 | V171G | -6.64 |
| 77 | D253A | -5.98 |
| 78 | M110T | -0.61 |
| 79 | F177K | -5.07 |
| 80 | L228D | -4.45 |
| 81 | P4N | -5.16 |
| 82 | G163L | -4.89 |
| 83 | D197Q | -5.27 |
| 84 | G109I | -5.60 |
| 85 | D137P | -7.43 |
| 86 | I40K | -5.21 |
| 87 | N289A | -6.20 |
| 88 | D151V | -5.04 |
| 89 | V226K | -4.31 |
| 90 | W214H | -7.21 |
| 91 | T249* | -6.96 |
| 92 | K48Q | -5.07 |
| 93 | R195I | -3.35 |
| 94 | S49E | -5.62 |
| 95 | A66C | -0.20 |
| 96 | P93V | -2.20 |
| 97 | D26I | -4.94 |
| 98 | T297K | -4.08 |
| 99 | R276F | -5.32 |
| 100 | P269H | -4.89 |
| 101 | G70R | -5.76 |
| 102 | D217R | -5.80 |
| 103 | I254E | -5.76 |
| 104 | A118H | -6.01 |
| 105 | G129E | -5.41 |
| 106 | I60W | -6.31 |
| 107 | V138L | -1.68 |
| 108 | I115V | -0.40 |
| 109 | S294D | -4.40 |
| 110 | D151M | -2.32 |
| 111 | L223M | -0.39 |
| 112 | V88Y | -4.76 |
| 113 | S266P | -5.45 |
| 114 | S266V | -6.21 |
| 115 | L135T | -7.71 |
| 116 | V144* | -6.71 |
| 117 | G255K | -6.13 |
| 118 | W181D | -4.12 |
| 119 | G31K | -4.99 |
| 120 | G275S | -0.52 |
| 121 | I98F | -5.05 |
| 122 | Y53N | -4.35 |
| 123 | A118D | -5.92 |
| 124 | G201L | -7.31 |
| 125 | G163D | -5.42 |
| 126 | G163I | -4.61 |

Extract of 10 entries:

{"change": "Y53N", "effect (log2)": -4.35}
{"change": "I98F", "effect (log2)": -5.05}
{"change": "D26I", "effect (log2)": -4.94}
{"change": "I115V", "effect (log2)": -0.40}
{"change": "F85N", "effect (log2)": -4.65}
{"change": "I254V", "effect (log2)": -6.42}
{"change": "A118D", "effect (log2)": -5.92}
{"change": "A256P", "effect (log2)": -7.04}
{"change": "G31K", "effect (log2)": -4.99}
{"change": "P4N", "effect (log2)": -5.16}

The authors count -1 or higher as tolerated. Position 1 is the last residue of NS2A. An asterisk is a stop codon; stop codons read about -7, near the floor of the assay. Values above 0 are not proof of better growth: six high scorers were tested one by one, five grew less well than wild type and one about as well.